# Potato spindle tuber viroid, stem 3: variant abundance in plants

Values reported by Wu et al. 2024 (doi:10.1371/journal.ppat.1012142).

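A pool of all variants was put on leaves of three Nicotiana benthamiana plants. Samples came from the inoculated region at 5 days, the leaf margin at 10 and upper systemic leaves at 12.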

The pool varies stem 3 of the PSTVd intermediate strain in the pattern GUGGUUCCGNANNCNN; wild type is GUGGUUCCGGAACCGC (upper and lower strand joined, each 5' to 3', the first 8 letters being the upper strand).

Values are reads per thousand in the sample; higher means more abundant, 0 means not found.
Each value is the mean of three plants.
"Pool" is the share in the plasmid pool used as inoculum, on the same scale.
The inoculated region was read from the minus strand, the other sites from the plus strand.
IR is the inoculated region, LM the leaf margin, Sys the systemic leaves.
For reference, wild type rose from 17.3 per thousand in the pool to 330, 345, 235 (inoculated region), 794, 766, 816 (leaf margin) and 830, 792, 869 (systemic leaves).

GUGGUUCCGCAGUCUG (pool 0.877): IR 0.939; LM 0.0106; Sys 0.
GUGGUUCCGUAUGCAG (pool 1.51): IR 0.933; LM 0; Sys 0.00621.
GUGGUUCCGAAAGCCC (pool 1.40): IR 0.702; LM 0.0241; Sys 0.
GUGGUUCCGUAUACCU (pool 0.785): IR 0.872; LM 0.228; Sys 0.
GUGGUUCCGCAUCCAG (pool 0.831): IR 0.335; LM 0; Sys 0.
GUGGUUCCGUACCCGA (pool 0.908): IR 0.290; LM 0.0106; Sys 0.
GUGGUUCCCACGCGUA (pool 0.369): IR 0.715; LM 0.133; Sys 0.
GUGGUUCCGGAUCCGG (pool 0.908): IR 0.272; LM 0.0120; Sys 0.0305.
GUGGUUCCGCAGUCGC (pool 0.908): IR 0.686; LM 0.0120; Sys 0.
GUGGUUCCGCAAACCU (pool 0.893): IR 0.238; LM 0.0226; Sys 0.
GUGGUUCCGCACUCGC (pool 2.31): IR 0.672; LM 0.201; Sys 0.101.
GUGGUUCCGUAGUCAU (pool 0.923): IR 0.680; LM 1.05; Sys 1.18.
GUGGUUCCGUAUCCAU (pool 0.877): IR 0.688; LM 0.117; Sys 0.
GUGGUUCCGCACCCCU (pool 0.693): IR 0.174; LM 0; Sys 0.
GUGGUUCCGCAACCGG (pool 0.739): IR 0.375; LM 0.0226; Sys 0.
GUGGUUCCGAACCCCC (pool 0.816): IR 0.421; LM 0.0200; Sys 0.
GUGGUUCCGAAGGCAA (pool 0.693): IR 1.09; LM 0.490; Sys 0.
GUGGUUCCGCAGGCAA (pool 0.893): IR 0.702; LM 0.0106; Sys 0.
GUGGUUCCGAAGUCGU (pool 0.785): IR 0.636; LM 1.10; Sys 1.10.
GUGGGUCCGCAGCCGU (pool 0.0154): IR 0; LM 0; Sys 0.
GUGGUUCCGCAUCCGU (pool 1.00): IR 0.346; LM 0.0106; Sys 0.
GUGGUUCCGGACCCUU (pool 0.816): IR 0.356; LM 0; Sys 0.
GUGGUUCCGCACACGC (pool 0.554): IR 0.292; LM 0.0106; Sys 0.
GUGGGUCCGAACUCUC (pool 0.0462): IR 0; LM 0; Sys 0.
GUGGUUCCGCAGUCGG (pool 1.03): IR 0.854; LM 0.00944; Sys 0.
GUGGUUCCGAAUGGUA (pool 0.323): IR 0.611; LM 0.272; Sys 0.
GUGGUUCCGGAUGCCA (pool 0.877): IR 0.274; LM 0.0200; Sys 0.
GUGGUUCCGCAUGCGA (pool 0.939): IR 0.306; LM 0.0189; Sys 0.
GUGGUUCCGUAGGCUC (pool 0.831): IR 0.281; LM 0; Sys 0.

Extract of 2 entries:

{"sequence": "GUGGUUCCGGAUCCGG", "pool": "0.908", "IR": 0.272, "LM": 0.0120, "Sys": 0.0305}
{"sequence": "GUGGUUCCGCAUCCGU", "pool": "1.00", "IR": 0.346, "LM": 0.0106, "Sys": 0}

The authors trace changes outside the varied positions to PCR and sequencing errors or to mutation in the plant; presence does not show that a variant is infectious alone.
Samples held 27,691 to 54,225 reads, so the smallest values rest on one or two reads.